Measured values from several laboratories, pooled; numbers as filed in NIAID ChemDB.

All rows: tests in culture; species: Candida albicans

Two numbers with a dash give a range or band. Rows are shuffled and stem from different studies. An empty or dashed field is not shown. MIC50, MIC90 and the like: level of inhibition, or share of isolates inhibited.

smiles	method	read-out	setting	strain	result
CC(C)=CCC/C(C)=C/CCC(C)=CCCC[n+]1ccccc1	-	MIC	-	CCH442	160 µM
Clc1ccc(COC(Cn2ccnc2)c2ccc(Cl)cc2Cl)c(Cl)c1	broth dilution	MFC100	-	MD 37	32 µg/mL
O=C(O)c1ccccc1O	-	MIC	-	-	>50 µM
CC(=O)C(Cc1ccccc1)NC(=O)C(C)CC(C)C	-	MIC	-	MUCC 29	6 µg/mL
CCCCCCCCCCNC1CCc2c(O)cccc2C1	-	MIC	-	-	<0.125 µM
C=CC(C)(O)CCCC=C(C)C	-	MIC90	-	-	0.025–0.031 µg/mL
CC1/C=C/C=C/C=C/C=C/C=C/C(O)C(C)C(O)CC(O)CC(O)CCCC(O)CC(O)C(C)C(=O)OC1C	-	MIC	-	-	10 µg/mL
COc1cc([C@@H]2c3cc4c(cc3[C@@H](O[C@@H]3O[C@@H]5CO[C@@H](C)O[C@H]5[C@H](O)[C@H]3O)[C@H]3COC(=O)[C@H]23)OCO4)cc(OC)c1O	-	MIC	-	-	50–100 µg/mL
CC(=O)CNC(=O)C(Cc1ccccc1)NC(=O)C(Cc1ccc(O)cc1)NC(=O)C(C)C(C)C	-	MIC	-	MUCC 29	6 µg/mL
CO[C@]1(CC[C@H](C)CO[C@@H]2O[C@H](CO)[C@@H](O)[C@H](O)[C@H]2O)O[C@H]2C[C@H]3[C@@H]4CC=C5C[C@@H](C6O[C@H](CO)[C@@H](O[C@@H]7O[C@@H](C)[C@H](OC8O[C@@H](C)[C@H](O)[C@@H](O)[C@H]8O)[C@@H](O)[C@H]7O)[C@H](O)[C@H]6O[C@@H]6O[C@@H](C)[C@H](O)[C@@H](O)[C@H]6O)CC[C@]5(C)[C@H]4CC[C@]3(C)[C@H]2[C@@H]1C	-	MIC	-	-	>200 µg/mL
O=[N+]([O-])c1ccc(CNC2CCc3c(O)cccc3C2)cc1	-	MIC	-	-	>64 µM
CC(C/C=C/C=C/CC/C=C\C=C\CCC(C)(C)C)C(O)C(O)C(O)C(O)C(O)C1OC(=O)C(O)C1O	-	MIC	-	ATCC 38247	1.6 µg/mL
CC[C@@H]1C[C@@]2(CC)O/C(=C\C(=O)OC)[C@@]3(CC)[C@H](CC)[C@]1(C)[C@@]23C	broth dilution	MIC80	clinical isolate	-	13.1 µM
COC1=CC(=O)C[C@@H](C)[C@]12Oc1c(Cl)c(OC)cc(OC)c1C2=O	-	MIC	-	MUCC 29	6 µg/mL
CN(C/C=C/C#CC(C)(C)C)Cc1cccc2ccccc12	-	MIC50	-	CI_3	1 µg/mL
Clc1ccc(CC[C@H](Cn2ccnc2)Sc2c(Cl)cccc2Cl)cc1	-	MIC	-	-	6 µg/mL
CCCCCCCCCNC1CCc2cc(O)ccc2C1	-	MIC	-	-	<0.125 µM
C[C@@]12CCC[C@]3(C)C4=CC(=O)OC(O)[C@]45O[C@@H]5C(OC1=O)[C@@H]23	-	MIC	-	ATCC 90029	>64 µg/mL
COc1cccc2c1C(=O)c1c(O)c3c(c(O)c1C2=O)C[C@@](O)(C(=O)CO)C[C@@H]3O[C@H]1C[C@H](N)[C@H](O)[C@H](C)O1	-	MIC	-	-	500–1500 µg/mL
CN[C@@H]1[C@H](O[C@@H]2OC[C@@H](O)[C@H](O)[C@H]2O)[C@@H](O)[C@H](O[C@H]2c3cc(C)c(C(=O)N(C)CC(=O)O)c(O)c3-c3c(cc4c(c3O)C(=O)c3cc(OC)cc(O)c3C4=O)[C@@H]2O)O[C@@H]1C	-	MIC	-	A9540	>100 µg/mL
C[C@@H]1C[C@@H]([C@H](O)CC2CC(=O)NC(=O)C2)C(=O)[C@@H](C)C1	-	MIC	-	Isolate 2	0.54 µM
CC(=O)C(Cc1ccccc1)NC(=O)C(C)Cc1cnc[nH]1	-	MIC	-	MUCC 29	6 µg/mL
c1c[nH]cn1	-	MIC	-	-	>50 µM
CC(=O)C(C)CCCN=C(N)N[N+](=O)[O-]	-	MIC	-	MUCC 29	12.5 µg/mL
C[C@@H]1O[C@@H](O[C@H]2[C@H](O[C@H]3CC[C@@]4(C)[C@@H](CC[C@]5(C)[C@@H]4CC=C4[C@@H]6CC(C)(C)CC[C@]6(C(=O)O)CC[C@]45C)[C@]3(C)CO)OC[C@H](O)[C@@H]2O)[C@H](O)[C@H](O)[C@H]1O	-	MIC	-	-	25 µg/mL
CO[C@@]12[C@H](COC(N)=O)C3=C(C(=O)C(C)=C(N)C3=O)N1C[C@@H]1N[C@@H]12	-	MIC	-	-	500–1500 µg/mL
CN[C@@H]1[C@H](O[C@@H]2OC[C@@H](O)[C@H](O)[C@H]2O)[C@@H](O)[C@H](O[C@H]2c3cc(C)c(C(=O)N[C@@H](CN)C(=O)O)c(O)c3-c3c(cc4c(c3O)C(=O)c3cc(OC)cc(O)c3C4=O)[C@@H]2O)O[C@@H]1C	-	MIC	-	A9540	>100 µg/mL
CCCCCCCCCCCCCC[n+]1ccccc1	-	MIC	-	CCH442	10 µM
CN[C@@H]1[C@H](O[C@@H]2OC[C@@H](O)[C@H](O)[C@H]2O)[C@@H](O)[C@H](O[C@H]2c3cc(C)c(C(=O)NCCC(=O)O)c(O)c3-c3c(cc4c(c3O)C(=O)c3cc(OC)cc(O)c3C4=O)[C@@H]2O)O[C@@H]1C	-	MIC	-	A9540	>100 µg/mL
CCCCCCCCCCNC1CCc2cccc(O)c2C1	-	MIC	-	-	<0.125 µM
CC1=C(Cl)C(O)=CC(=O)C12Oc1cc(O)c(Cl)c(C)c1C2=O	broth dilution	MIC	-	MTCC 227	500 µg/mL
CCC(C)n1ncn(-c2ccc(N3CCN(c4ccc(OC[C@H]5CO[C@](Cn6cncn6)(c6ccc(Cl)cc6Cl)O5)cc4)CC3)cc2)c1=O	-	MIC	-	Isogenic mutant isolate 1	0.015 µg/mL
CN[C@@H]1[C@H](O[C@@H]2OC[C@@H](O)[C@H](O)[C@H]2O)[C@@H](O)[C@H](O[C@H]2c3cc(C)c(C(=O)NCS(=O)(=O)O)c(O)c3-c3c(cc4c(c3O)C(=O)c3cc(OC)cc(O)c3C4=O)[C@@H]2O)O[C@@H]1C	-	MIC	-	A9540	50 µg/mL
CC(=O)C(NC(=O)C1CCCN1C)C(C)C	-	MIC	-	MUCC 29	6 µg/mL
CC(C)CCCC(C)CCCC(C)CCCC[n+]1ccc(N(C)C)cc1.O=C([O-])C(F)(F)F	-	MIC	-	CCH442	3.3 µM
Cl.NCCS	-	MIC	-	MTCC 183	>1000 µg/mL
CCC(=O)NCC(C)=O	-	MIC	-	MUCC 29	25 µg/mL

A second listing of 5 rows from above:

smiles,method,read-out,setting,strain,result
CCCCCCCCCCNC1CCc2c(O)cccc2C1,-,MIC,-,-,<0.125 µM
CN[C@@H]1[C@H](O[C@@H]2OC[C@@H](O)[C@H](O)[C@H]2O)[C@@H](O)[C@H](O[C@H]2c3cc(C)c(C(=O)N[C@@H](CN)C(=O)O)c(O)c3-c3c(cc4c(c3O)C(=O)c3cc(OC)cc(O)c3C4=O)[C@@H]2O)O[C@@H]1C,-,MIC,-,A9540,>100 µg/mL
CN[C@@H]1[C@H](O[C@@H]2OC[C@@H](O)[C@H](O)[C@H]2O)[C@@H](O)[C@H](O[C@H]2c3cc(C)c(C(=O)N(C)CC(=O)O)c(O)c3-c3c(cc4c(c3O)C(=O)c3cc(OC)cc(O)c3C4=O)[C@@H]2O)O[C@@H]1C,-,MIC,-,A9540,>100 µg/mL
CN(C/C=C/C#CC(C)(C)C)Cc1cccc2ccccc12,-,MIC50,-,CI_3,1 µg/mL
COC1=CC(=O)C[C@@H](C)[C@]12Oc1c(Cl)c(OC)cc(OC)c1C2=O,-,MIC,-,MUCC 29,6 µg/mL